Laboratory results: PubChem BioAssay AID1800 (The Scripps Research Institute Molecular Screening Center, 2009)
The list shows a part of the results, in another mix than the full data. Active and inactive are the calls of the source.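 Rule for the calls: active = inhibition above the mean of all tested compounds plus 3 SD, set per campaign (cut at about 35% in these data); inactive = the rest.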

What follows are compounds tested on Hepatitis C virus NS3 helicase (assay: inhibitors of HCV NS3 helicase, primary screen, biochemical, Cy5 molecular beacon fluorescence (AID 1800)). Conditions: NS3 helicase DNA unwinding, at 10.9 µM, hits give high values.
Method in brief: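 System: NS3 helicase fragment of HCV / Schedule: 1 h at 25 °C / Control set: DMSO alone as 0% and 110 µM thioflavine S as 100% / Reagent: Cy5/quencher beacon DNA duplex and ATP to start / Technique: Cy5 fluorescence / Replication: singlicate / Evaluation: % inhibition of end-to-start signal ratio versus controls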
In the case of `COc1ccccc1OP(=O)(Nc1ccc(C)cn1)Oc1ccccc1OC`, the inhibition is reported as inactive: 0.22%.
With `Clc1ccc(Cl)c(NC2=NCC(CBr)S2)c1` (stereo not drawn) the inhibition was inactive: -13%.
For `CN1CCCC(OC(=O)C(c2ccccc2)c2ccccc2)C1` (stereo not drawn), the inhibition was inactive: -5.38%.
In the case of `NC(=O)c1cc([N+](=O)[O-])cc([N+](=O)[O-])c1N`, the inhibition is reported as inactive: -4.94%.
With `Cc1ccc(N/C(=N/P(=O)(N2CCOCC2)N2CCOCC2)N2CCOCC2)cc1` the inhibition was inactive: 13.6%.
For `COc1ccc(N/C(=N/P(=O)(N2CCOCC2)N2CCOCC2)N2CCOCC2)cc1`, the inhibition was inactive: -0.26%.
In the case of `COc1cc(I)ccc1[As](=O)(O)O`, the inhibition is reported as inactive: 1.73%.
In the case of `COc1ccc2nc(NP(=O)(c3ccccc3)c3ccccc3)sc2c1`, the inhibition is reported as inactive: -0.77%.
In the case of `Cc1cc(=O)[nH]c(N[N+](=O)[O-])n1`, the inhibition is reported as inactive: -3.32%.
With `O=C(OC1CN2CCC1CC2)C12CC3CC(CC(C3)C1)C2` (stereo not drawn) the inhibition was inactive: 0.07%.
With `Cc1c2c(nc3ccccc13)SC(C(Cl)Cl)C2` (stereo not drawn) the inhibition was inactive: -1.19%.
In the case of `O=[N+]([O-])c1cc([N+](=O)[O-])c(-c2ccn[nH]2)s1`, the inhibition is reported as inactive: 18.4%.
For `CCN(CC)C(=S)SC(NC=O)C(Cl)(Cl)Cl` (stereo not drawn), the inhibition was inactive: -2.48%.
`CC(C)NC(=O)NP(=O)(Oc1ccccc1)Oc1ccccc1` was tested, and the inhibition was inactive: -0.98%.
For `CC(C)c1ccc(OP(=O)(Nc2ccccn2)Oc2ccccc2F)cc1` (stereo not drawn), the inhibition was inactive: 4.84%.
For `ClCCSc1nnc(-c2cccnc2)o1`, the inhibition was inactive: -2.85%.
In the case of `Cc1ccc2nc3c(c(C)c2c1)CC(C(Cl)Cl)S3` (stereo not drawn), the inhibition is reported as inactive: 0.31%.
For `Cc1ccc(OP(=O)(Nc2ccc([N+](=O)[O-])cn2)Oc2ccc(C)cc2)cc1`, the inhibition was inactive: -1.73%.
In the case of `O=[As](O)(c1ccc(O)cc1)c1ccccc1O`, the inhibition is reported as inactive: 18.6%.
`C[As](=O)(O)c1cccc(C(=O)O)c1` was tested, and the inhibition was inactive: -1.13%.
For `O=[N+]([O-])c1ccc(Nc2ccc(Oc3ccc([N+](=O)[O-])cc3[N+](=O)[O-])cc2)c([N+](=O)[O-])c1`, the inhibition was inactive: 1.63%.
For `Cc1cc(SC(NC=O)C(Cl)(Cl)Cl)ncn1` (stereo not drawn), the inhibition was inactive: -8.65%.
For `O=P(Nc1ccccn1)(c1cccc2ccccc12)c1cccc2ccccc12`, the inhibition was inactive: 1.16%.
`CCOC(=O)Nc1cccc([As](=O)(O)O)c1` was tested, and the inhibition was inactive: 1.96%.
With `Cc1cc(SC(NC(=O)c2ccccc2)C(Cl)(Cl)Cl)nc(C(C)C)n1` (stereo not drawn) the inhibition was inactive: 7.85%.
With `CCCCOc1ccc(C(=O)NCC2(N3CCCCC3)CCCCC2)cc1OC` the inhibition was inactive: -5.65%.
`CCOC(=O)Nc1ccc([As](=O)(O)O)c(O)c1` was tested, and the inhibition was inactive: -7.19%.
With `CCC(C)N(CC(C)C)C(=S)SC(NC(C)=O)C(Cl)(Cl)Cl` (stereo not drawn) the inhibition was inactive: -0.84%.
